By UniProt entry, the sequences of proteins in these tests, tags left out. Where a name states a change or a piece, a line headed by the entry shows the natural chain unless it says otherwise.
UniProt O18423: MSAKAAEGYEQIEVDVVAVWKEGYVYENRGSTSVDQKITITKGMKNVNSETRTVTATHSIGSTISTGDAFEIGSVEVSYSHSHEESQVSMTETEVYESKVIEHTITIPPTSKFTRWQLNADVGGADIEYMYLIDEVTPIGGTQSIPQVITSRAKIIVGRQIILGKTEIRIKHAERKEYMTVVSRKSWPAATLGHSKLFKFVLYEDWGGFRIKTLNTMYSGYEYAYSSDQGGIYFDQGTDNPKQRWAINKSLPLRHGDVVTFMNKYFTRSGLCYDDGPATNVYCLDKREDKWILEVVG

In paper PMC3526787, “Structures of Lysenin Reveal a Shared Evolutionary Origin for Pore-Forming Proteins And Its Mode of Sphingomyelin Recognition” (Structure(London, England:1993), 2012):

Molecular target: lysenin (Eisenia fetida, UniProt O18423)
Experiment: X-ray crystal structure
Details: SeMet protein crystals soaked with 50 mM phosphocholine, pH 4.5; site in C-terminal beta-trefoil (K185, S227, Y233, Y282)

**Q.** `C[N+](C)(C)CCOP(=O)([O-])O` was tested. Which X-ray crystal structure did it give?
**A.** the protein was found in complex with a phosphocholine molecule (lysenin:POC)
